Results of unrelated studies side by side (data: NIAID ChemDB).

Shared fields: whole-cell or culture tests; agent: Mycobacterium tuberculosis

Two numbers with a dash give a range or band. MIC bound: limit read from a one-dose screen. ECn: concentration that inhibits the pathogen or its effect by n%. Blank or dashed fields: not listed here. Rows are shuffled and stem from different studies. Percent inhibition refers to the dose given; in toxicity tests it is the harm to the cells. A number after MIC or MFC names an inhibition level or a share of isolates.

structure	measure	method	changes	tested at	strain	value
Cc1ccc(C)n1C1CCCCC1	MIC				103471	4 µg/mL
c1ccc(C(CCNCCNC2CCc3ccccc32)c2ccccc2)cc1	MIC					12.5 µM
C=C1C(=O)[C@@]23CC[C@@H]4[C@@](C)(COC(C)=O)CCC[C@@]4(C)[C@@H]2[C@@H](O)C[C@@H]1C3	MIC	resazurin / absorbance			H37Rv	>50 µg/mL
O=C(Cc1ccccc1)SCC1CS1	MIC				H37Rv	12.5 µg/mL
NNC(=O)c1ccncc1	MIC				H37Rv	0.065 µg/mL
COc1ccccc1CCNCCN[C@@H]1C[C@@H]2C[C@H]([C@H]1C)C2(C)C	MIC					25 µM
Cc1ccc(C)n1Cc1ccccc1	MIC				H37Rv	<12.5 µg/mL
COc1c(N2C[C@@H]3CCCN[C@@H]3C2)c(F)cc2c(=O)c(C(=O)O)cn(C3CC3)c12	EC50				H37Rv	0.116 µg/mL
CCC(C)(C)NCCNCc1ccc(OC)c(OC)c1	MIC					25 µM
CNc1nc(N)cc(Nc2ccc(Br)cc2)n1	inhibition	BACTEC		12.5 µg/mL	H37Rv	98%
Clc1ccc(-n2ncc(C(c3ccccc3)n3ccnc3)c2-c2ccccc2Cl)c(Cl)c1	MIC50				ATCC 35837 (ethambutol-resistant)	36.2 µM
CO[C@H]1/C=C/O[C@@]2(C)Oc3c(C)c(O)c4c(O)c(cc(OCC(=O)NNc5ccccc5)c4c3C2=O)NC(=O)/C(C)=C\C=C\[C@H](C)[C@H](O)[C@@H](C)[C@@H](O)[C@@H](C)[C@H](OC(C)=O)[C@@H]1C	MIC				H37Rv	0.037 µg/mL
Cc1cc(C2CCCC2)nc2c(C3CCCC3)cccc12	MIC				H37Rv	6.25 µg/mL
O=C(NCCS(=O)(=O)N1C(=O)C2CCCN2C(=O)[C@@H]1Cc1ccccc1)OCc1ccccc1	inhibition	resazurin		6.25 µg/mL	H37Rv	18%
CO[C@H]1/C=C/O[C@@]2(C)Oc3c(C)c(O)c4c(O)c(cc(OCC(=O)N5CCCCC5C)c4c3C2=O)NC(=O)/C(C)=C\C=C\[C@H](C)[C@H](O)[C@@H](C)[C@@H](O)[C@@H](C)[C@H](OC(C)=O)[C@@H]1C	MIC				H37Rv	0.18 µg/mL
Cc1ccc(C(=O)Nn2c(C)nc3scc(-c4ccco4)c3c2=O)cc1	MIC				CNCTC MY331/88	96 µM
O=C([O-])c1cc(-c2ccc3c(c2)Nc2ccccc2S3)nc2ccc(F)cc12.[K+]	inhibition	BACTEC		12.5 µg/mL	H37Rv	3%
Cc1c(CN2CCN(C)CC2)cc(-c2ccc(Cl)cc2)n1-c1ccc(Cl)cc1	MIC				H37Rv	<12.5 µg/mL
CC(=S)NC1c2ccccc2Oc2ccccc21	inhibition	resazurin		6.25 µg/mL		14%
Fc1ccccc1CCNCCN1CCCC2CCCCC21	MIC					50 µM
Cc1ccc(-c2ccc(Cl)cc2)n1C1CCCCC1	MIC				103471	8 µg/mL
C=C1C(=O)[C@]23C[C@H]1CC[C@H]2[C@]1(C)CCCC(C)(CO)[C@H]1C[C@H]3O	MIC	resazurin / absorbance			H37Ra	1.56–3.125 µg/mL
Cc1c(CN2CCN(C)CC2)cc(-c2ccc(Cl)cc2)n1C1CCCCC1	MIC				103471	8 µg/mL
CC1COc2c(N3CCN(C)CC3)c(F)cc3c(=O)c(C(=O)O)cn1c23	MIC				890902	0.5 µg/mL
COC(=O)c1nc2n[nH]c(N)c2c2c1CCCCCCCCCC2	MIC	BACTEC			H37Rv	≥12.5 µg/mL
CCOC(=O)Cc1cc(C2CCCCC2)nc2c(C3CCCCC3)cccc12	MIC				H37Rv	6.25 µg/mL
C=C1C(=O)[C@@]23[C@@H]4CC5=C(C(=O)CC5(C)C)[C@@](C)(O4)[C@@H]2CC[C@@H]1[C@H]3O	MIC	resazurin / absorbance			H37Ra	25–50 µg/mL
CC1(C)Nc2cccc3c(N=Nc4ccc(N=Nc5ccccc5)c5ccccc45)ccc(c23)N1	MIC bound	BACTEC			H37Rv	≤128 µg/mL
O=C(CSCc1ccccc1)OCC(S)CS	MIC				H37Rv	50 µg/mL
O=C1c2ccccc2C(=O)c2c3c(cc(NCCNCCO)c21)N(CCO)CCN3	MIC bound				H37Rv	>6.25 µg/mL
CCOC(=O)CC(=O)SCC1CS1	MIC				H37Rv	3.125 µg/mL
Clc1ccc(-n2ncc(C(c3ccccc3)n3ccnc3)c2-c2ccccc2)c(Cl)c1	MIC50				ATCC 35837 (ethambutol-resistant)	64.2 µM
CCCCCCn1c(C)cc(CN2CCOCC2)c1C	MIC				103471	8 µg/mL
Cc1nc2scc(-c3ccco3)c2c(=O)n1/N=C/c1ccccc1	MIC				CNCTC MY331/88	52 µM
FC(F)(F)c1ccc(CNCCNC23CC4CC(CC(C4)C2)C3)cc1	MIC					>50 µM
COC(=O)c1cc(C2CCCCC2)nc2c(C3CCCCC3)cccc12	MIC				H37Rv	>6.25 µg/mL
Cc1nc2scc(-c3ccco3)c2c(=O)n1NC(=O)c1ccc(F)cc1	MIC				CNCTC MY331/88	9 µM
Cc1[nH]ccc(=O)c1OC(=O)C12CC3CC(CC(C3)C1)C2	MIC bound	BACTEC			H37Rv	>12.5 µg/mL
Fc1ccccc1-n1ncc(C(c2ccccc2)n2ccnc2)c1-c1ccccc1	MIC90				ATCC 35837 (ethambutol-resistant)	≥100 µM
Cc1nc2scc(-c3ccco3)c2c(=O)n1NC(=O)c1ccco1	MIC				CNCTC MY331/88	96 µM
CN[C@@H]1[C@H](O[C@H]2[C@H](O[C@H]3[C@H](O)[C@@H](O)[C@H](N=C(N)N)[C@@H](O)[C@@H]3N=C(N)N)O[C@@H](C)[C@]2(O)C=O)O[C@@H](CO)[C@H](O)[C@H]1O	MIC90				ATCC 35837 (ethambutol-resistant)	0.3 µM
O=C(O)c1c(C(=O)O)c2cccn2c2c1cnn2-c1ccccc1	inhibition	resazurin		6.25 µg/mL	H37Rv	14%
Clc1ccc(-c2c(C(c3ccccc3)n3ccnc3)cnn2-c2ccc(Cl)cc2Cl)cc1	MIC90				ATCC 35822 (isoniazid-resistant)	>100 µM
C=C1C(=O)[C@]23C[C@H]1C[C@H](OC(C)=O)[C@H]2[C@]1(C)CCCC(C)(C)[C@H]1C[C@H]3O	MIC	resazurin / absorbance			H37Ra	6.25–12.5 µg/mL
CCCCCCn1c(C)ccc1-c1ccc(Cl)cc1	MIC				H37Rv	<12.5 µg/mL
Cc1nc2scc(-c3ccco3)c2c(=O)n1NC(=O)c1ccc(F)cc1F	MIC				CNCTC MY331/88	15 µM
CN(C)c1ccc(/C=N/Nc2nnc(N/N=C/c3ccc(N(C)C)cc3Cl)c3ccccc23)c(Cl)c1	MIC	BACTEC			H37Rv	12.5 µg/mL
NC(=O)c1cnccn1	MIC				H5009	30 µg/mL
O=C1NC(CCO)C(=O)NC1CCO	MIC bound	BACTEC			H37Rv	>12.5 µg/mL
CCNC(=O)COc1cc2c(O)c3c(O)c(C)c4c(c13)C(=O)[C@@](C)(O/C=C/[C@H](OC)[C@@H](C)[C@@H](OC(C)=O)[C@H](C)[C@H](O)[C@H](C)[C@@H](O)[C@@H](C)/C=C/C=C(/C)C(=O)N2)O4	MIC				H37Rv	0.15 µg/mL
O=C(SCC1CS1)C(Cl)Cl	MIC				H37Rv	25 µg/mL
S=C(S)Nc1cccc2ccccc12	MIC bound	BACTEC			H37Rv	>12.5 µg/mL
Cc1c(F)c(N2CCNC(C)C2)cc2c1c(=O)c(C(=O)O)cn2C1CC1	MIC50				45 strains (drug-susceptible)	≤0.5 µg/mL
C=C1C(=O)[C@@]23[C@H](O)C[C@@H]4[C@@](C)(COC(C)=O)CCC[C@@]4(C)[C@@H]2CC[C@@H]1[C@H]3O	MIC	resazurin / absorbance			H37Rv	>50 µg/mL
O=[N+]([O-])c1ccc2nc3ccccc3[n+]([O-])c2c1	MIC	BACTEC			H37Rv	0.8 µg/mL
Cc1cccc(CNCCNCCCCc2ccccc2)c1	MIC					12.5 µM
Fc1ccc(-n2ncc(C(c3ccccc3)n3ccnc3)c2-c2ccccc2)cc1	MIC50				ATCC 35837 (ethambutol-resistant)	≥100 µM
O=C(CN1c2ccccc2Sc2ccccc21)SC1=NC(=O)/C(=C/c2ccc(Cl)cc2)S1	MIC bound	BACTEC			H37Rv	>12.5 µg/mL
CCCCC(CC)CN1CN(CC(CC)CCCC)CC(C)(NCCNCCc2ccccc2Cl)C1	MIC					12.5 µM
NNC(=O)c1ccncc1	MIC90				ATCC 35828 (pyrazinamide-resistant)	2.4 µM
O=C(Cc1nc2cc(Cl)c(Cl)cc2nc1CC(=O)c1ccncc1)c1ccncc1	MIC	resazurin			H37Rv	>6.25 µg/mL
CO/N=C1\CN(c2nc3c(cc2F)c(=O)c(C(=O)O)cn3C2CC2)CC1CN	MIC90				82 strains	>4 µg/mL
Clc1ccccc1C(c1ccccc1)(c1ccccc1)n1ccnc1	MIC50				ATCC 35837 (ethambutol-resistant)	≥100 µM
Cc1nc2scc(-c3ccco3)c2c(=O)n1/N=C/c1cccs1	MIC				CNCTC MY331/88	54 µM
C=C1C[C@]23C[C@H]1CC[C@H]2[C@]1(C)CCC[C@](C)(COC(C)=O)[C@H]1C[C@H]3O	MIC	resazurin / absorbance			H37Rv	>50 µg/mL
CC(=O)c1c(O)n(-c2ccc(C)cc2)c(=O)c2c(N)n[nH]c12	MIC bound	BACTEC			H37Rv	>12.5 µg/mL
COC(=O)c1cnc2ccccc2c1C1C2CC3CC(C2)CC1C3	MIC				H37Rv	>6.25 µg/mL
CCCCC(CC)CN1CN(CC(CC)CCCC)CC(C)(NCCNCCF)C1	MIC					12.5 µM
CC(=O)Nn1c(C)nc2scc(-c3ccco3)c2c1=O	MIC				CNCTC MY331/88	78 µM
CC(C)CC(C)NCCNCc1ccccc1F	MIC					50 µM
COC1C[C@H](C)[C@@H](OC)C2=CC(=O)C=C(NC(=O)/C(C)=C/C=C\[C@H](C)C(OC(N)=O)/C(C)=C/[C@@H](C)[C@@H]1OC)C2=O	MIC				CS-R	12.5 µg/mL
Cc1ccc(-c2ccc(Cl)cc2)n1Cc1ccccc1	EC50				H37Rv	<12.5 µg/mL
CSCCC(=O)OCC(S)CS	MIC				H37Rv	25 µg/mL
O=C(O)c1cnc2ccccc2c1	MIC				H37Rv	>6.25 µg/mL
COc1ccc(C(=O)Nn2c(C)nc3scc(-c4ccco4)c3c2=O)cc1	MIC				CNCTC MY331/88	16 µM
CCOC(=O)Cc1cc(C2CCCC2)nc2c(C3CCCC3)cccc12	MIC				H37Rv	4 µg/mL
COc1cc(C)c2c(=O)c3c(oc2c1)C(=O)c1c(O)c(OC)cc(O)c1C3=O	MIC				RMP-R	12.5 µg/mL
CCCCN(C(=O)COc1cc2c(O)c3c(O)c(C)c4c(c13)C(=O)[C@@](C)(O/C=C/[C@H](OC)[C@@H](C)[C@@H](OC(C)=O)[C@H](C)[C@H](O)[C@H](C)[C@@H](O)[C@@H](C)/C=C/C=C(/C)C(=O)N2)O4)N(CC)CC	MIC				H37Rv	0.18 µg/mL
CO[C@H]1/C=C/O[C@@]2(C)Oc3c(C)c(O)c4c(O)c(c(/C=N/N5CCN(C)CC5)c(O)c4c3C2=O)NC(=O)/C(C)=C\C=C\[C@H](C)[C@H](O)[C@@H](C)[C@@H](O)[C@@H](C)[C@H](OC(C)=O)[C@@H]1C	MIC	resazurin	Multidrug-resistant		FJ05189	>256 µg/mL
OC1C[C@H]2CC[C@@H](C1)N2	MIC bound	BACTEC			H37Rv	>12.5 µg/mL
O=C(Cc1ccccc1)OCC(S)CS	MIC				H37Rv	25 µg/mL
C=C1C(=O)[C@@]23CC[C@@H]4[C@@](C)(CO)CCC[C@@]4(C)[C@@H]2CC[C@@H]1C3	MIC	resazurin / absorbance			H37Rv	25–50 µg/mL
COC(=O)c1ccnc2ccccc12	inhibition			6.25 µg/mL	H37Rv	0%
CC1COc2c(N3CCN(C)CC3)c(F)cc3c(=O)c(C(=O)O)cn1c23	MIC90				ATCC 27294	3 µM
Nc1ccc(O)c2c1C(=O)c1ccccc1C2=O	inhibition	BACTEC		12.5 µg/mL	H37Rv	26%
SCC1CS1	MIC				H37Rv	12.5 µg/mL
Cc1c(CN2CCOCC2)c(CN2CCOCC2)c(-c2ccc(Cl)cc2)n1Cc1ccccc1	EC50				H37Rv	<12.5 µg/mL

Repeating the final 9 entries:

structure | measure | method | changes | tested at | strain | value
CO[C@H]1/C=C/O[C@@]2(C)Oc3c(C)c(O)c4c(O)c(c(/C=N/N5CCN(C)CC5)c(O)c4c3C2=O)NC(=O)/C(C)=C\C=C\[C@H](C)[C@H](O)[C@@H](C)[C@@H](O)[C@@H](C)[C@H](OC(C)=O)[C@@H]1C | MIC | resazurin | Multidrug-resistant |  | FJ05189 | >256 µg/mL
OC1C[C@H]2CC[C@@H](C1)N2 | MIC bound | BACTEC |  |  | H37Rv | >12.5 µg/mL
O=C(Cc1ccccc1)OCC(S)CS | MIC |  |  |  | H37Rv | 25 µg/mL
C=C1C(=O)[C@@]23CC[C@@H]4[C@@](C)(CO)CCC[C@@]4(C)[C@@H]2CC[C@@H]1C3 | MIC | resazurin / absorbance |  |  | H37Rv | 25–50 µg/mL
COC(=O)c1ccnc2ccccc12 | inhibition |  |  | 6.25 µg/mL | H37Rv | 0%
CC1COc2c(N3CCN(C)CC3)c(F)cc3c(=O)c(C(=O)O)cn1c23 | MIC90 |  |  |  | ATCC 27294 | 3 µM
Nc1ccc(O)c2c1C(=O)c1ccccc1C2=O | inhibition | BACTEC |  | 12.5 µg/mL | H37Rv | 26%
SCC1CS1 | MIC |  |  |  | H37Rv | 12.5 µg/mL
Cc1c(CN2CCOCC2)c(CN2CCOCC2)c(-c2ccc(Cl)cc2)n1Cc1ccccc1 | EC50 |  |  |  | H37Rv | <12.5 µg/mL